In article PMC9891525 (PLOS Pathogens, 2023):

B1: purified monoclonal antibody d7 (S97Y, D54I, N57H) (antibody, V domains shown)
VH: QVQLVESGGGVVQPGRSLRLSCAASGFTFSNYAMYWVRQAPGKGLEWVAVISYIGSHKYYADSVKGRFTISRDNSKNTLYLQMNSLRTEDTAVYYCASGSDYGDYLLVYWGQGTLVTVSS
VL: QSALTQPASVSGSPGQSITISCTGTSSDVGGYNYVSWYQQHPGKAPKLMIYDVSKRPSGVSNRFSGSKSGNTASLTISGLQSEDEADYYCNSLTSIYTWVFGGGTKLTVL
B2: purified monoclonal antibody d9 (S97Y, D54L, N57H) (antibody, V domains shown)
VH: B1 VH with I54L
VL: B1 VL

Biological target: SARS-CoV-2 Beta variant RBD (SARS-CoV-2, Beta variant (B.1.351), N501Y | K417N | E484K)
Test: SPR

Row | Binder | fold lower KD than the original antibody REGN10987
1 | B1 | 2 times
2 | B2 | 2 times

Where a chain is given by its changes, count along the chain named. Names and notes keep the numbering of the source.
